Experimental data published in patent US20140004137A1, “IMMUNE RESTRICTED PEPTIDES WITH INCREASED EFFICACY” (priority 2010, published 2014).

Assays:
[1] = system: CD8+ T cells from Influenza A positive donors sorted with HLA A2.1::[…] tetramers; format: cell-based, human
[2] = system: CD8+ T cells from Influenza A positive donors sorted with HLA A2.1::[…] tetramers; format: cell-based, human; remark: listed apart in the source
[3] = target: HLA-A0201 (Homo sapiens, UniProt P04439, D140Y/D185E/D98H/E176V/E277Q/G131W/G231S/I119V/I121R/I166T/I218V/L300P/L318F/N151K/N90K/P208A/P217A/Q86G/Q94H/R138H/R169H/T345S); conditions: cited from earlier work

## FLPSDFFPSV
[1]
  % Positive TCR recognition (% TCR): 0.10%
  Geometric mean (Geo TCR): 100 arbitrary fluorescence units
[2]
  % CD8+ T cells producing IFN-γ (% IFN): 0.0%
  Geometric mean IFN-γ (Geo IFN): 106 arbitrary fluorescence units
[3]
  affinity for HLA-A2.1 (in words, background statement): very high affinity for HLA-A2.1
